Laboratory results as given in the supplement of paper PMC9931576.
Residue numbers refer to the chain shown, from its start. Human monoclonal antibodies against the spike receptor-binding domain (heavy:light variable regions). IC50 against pseudoviruses bearing the spike of naturally observed variants; lower = stronger; >10 µg/ml means not reached at the top dose. No active / inactive call. The stated detection limit is 0.0005 µg/ml; values near or below 0.001 µg/ml lie at the floor of the assay.

B1: BD56-1198 (protein)
chain 1: EVQLVESGGGLIQPGGSLRLSCAASGIIVSRNYMSWVRQAPGKGLEWVSLIYSGGTTYYADSVKGRFTTSRDNSKNTLYLQMNSLRAEDTAVYYCARSVGYGRFDYWGQGTLVTVSS
chain 2: DIQMTQSPSSLSASVGDRVTITCQASQDINNYLNWYQQKPGKAPKLLIYDASNLETGVPSRFSGSGSETDFTFTISSLQPEDIATYYCQQYDNLPPVTFGPGTKVDIK
B2: BD56-1220 (protein)
chain 1: QVQLVQSGAEVKKPGASVRISCKASGYTFTSYYIHWVRQAPGQGLEWMGIVNPSAGSTSYALKFQGRVTMTGDTSTSTVYMELSSLRPEDTAMYYCARDFFLIPAANAFDIWGQGTMVTVSS
chain 2: EIVLTQSPDTLSLSPGERATLSCRASQSVSTYLAWYQQKPGQAPRLLIYDASNRATGIPARFSGSGSGTDFTLTISSLEPEDFAVYYCQQRTNWPRMYTFGQGTKLEIK
B3: BD56-1221 (protein)
chain 1: QVQLVESGGGVVQPQRSLRLSCAASGFPFTNYVMHWVRQAPGKGLEWVAVISSDGSTKYYADSVKGRFTTSRDNFKNTLYLQMSSLRAEDTAVYYCARALGNPRTTYYYHGFDVWGQGTTVTVSS
chain 2: DIQLTQSPSSLSASVGDRVTITCRASQSINSYLNWYRQKPGKAPKLLIYAASTLQSGVPSRFSGSGSETDFALTISSLQPEDFATYYCQQSYNTHSTFGPGTRVDIK
B4: BD56-1226 (protein)
chain 1: QVHLVQSGAAVQKPGASLKVSCQASGSTFTNQYIHWVRQAPGQGLEWMGIINPSAGSTTYAQKFQGRLTMTTDTSTSTLYMELRSLRSEDTAVYYCARDLVFVPASSALDVWGQGTTVTVSS
chain 2: B2 chain 2 with D9A, R24K, A60T, T92S, N93G, Y98F, T99S, Q102P, L106V, E107A
B5: BD56-1244 (protein)
chain 1: EVQVVESGGGLVKPGGSLRLSCAASGFTFRSYSMNWVRQGPGQGPEWVSFISSGSSFRDYADSVKGRFTIYRDNAKNSVYLQMHGLRAEDTAVYYCARGGYTDNSDWYDNPNDLDYAMDVWGQGTTVAVSS
chain 2: EIVMTQSPATLSVSPGERATLSCRASQSVSSNLAWYQQKPGQAPRLLIYGASTRATGIPARFSGSGSGTEFTLTISSLQSEDFAVYYCQQYNNWPRTFGQGTEVEIK
B6: COV2-2046 (protein)
chain 1: EVQLVESGGGLVQPGRSLRLSCAASGFTFDDYAMHWVRQAPGKGLEWVSGISWNSGSIAYTDSVKGRFTISRDNAKNSLYLQMNSLRAEDTALYYCAKAHSTGHQYYYGMDVWGQGTTVTVSS
chain 2: DIQMTQSPSSLSASVGDRVTITCRASQSISSFLNWYQQKPGKAPKLLIYAAFNLQSGVPSRFSGSGSGTDFTLTISSLQSEDFATYYCQQSYNTPYTFGQGTKLEIK
B7: BD56-1247 (protein)
chain 1: QVQLQESGPGLVKPSQTLSLTCTVSGGSVRDEVYYWSWIRQPPGKGLEWIGYIHNSGNTYYNPSLKSRVVISVDMSKNQFSLKLNSVTAADTAVYYCARVDVGGTLVSTFDYWGQGILVTVSS
chain 2: EFMLTQPHSVSESPEMTVTISCTGSSGSIASNYVQWYQQRPGSAPRTVIYENNQRPSGVPNRFSGSIDSSSNSASLTISGLKTEDEADYYCQSYDDSNVAVFGGGTQLTVL
B8: BD56-1251 (protein)
chain 1: QVQLVESGGGVVQPGRSLRLSCAASGITFSGYGMHWVRQAPGKGLEWVALIWSDGGNKYYADFVKGRFTISRDNSKNTMYLQMNSLRADDTAMYFCARETPGAGYPIDYWGQGTLVTVSS
chain 2: SYVLTQPFSVPVAPGKTARITCGGNNIGSKSVHWYQQKAGQAPVLVVYDDSDRPSGILERFSGSKSGNTATLTISRVAAGDEADYYCQVWDNNSDHVVFGGGTKLTVL
B9: BD56-1252 (protein)
chain 1: EVQLLESGGGLVQPGGALRLSCSASGFTFSSYDMTWVRQVPGKGLEWVSVISGSGGRTYYADSVKGRFTISRDNSKNMLYLQMNSLRAEDTAVYYCANIAVQLLVVVDYWSPTDYWGQGTLVTVSS
chain 2: AIQMTQSPSSLSASVGDRVTITCRASQGIRNDLGWYQQKPGKAPRLLIFAASNLQSGVPSRFSGSGSGTDFTLTISSLQPEDFATYYCLQDYNYPYTFGQGTKLEIK
B10: BD56-1254 (protein)
chain 1: QVQLQESGPGLVKPSETLSLTCTVSGGSIRNYYWSWIRQPAGKGLEWMGRVYISGGANYIPSLKGRVTMSLDTSKNQFSLRLRSVTAADTAVYYCATSGSGTFSDYWSFDLWGRGTLVTVSS
chain 2: NFMLTQPHSVSESPGKTVTISCTRSSGSIASNYVQWYQRRPGSAPTTVIYEDDQRPSGVPDRFSGSIDSSSNSASLTISGLKTEDEADYYCQSYDTSNVVFGGGTKLTVL
B11: BD56-1255 (protein)
chain 1: EVQLVESGGGLVQPGRSLRLSCAASGFTFDDYAMHWVRQAPGKGLEWVSGVSWNSGTIGYADSVKGRFFISRDNAKNSLYLQMIRLRAEDTALYYCAKDTRSSSTGQDEAYGMDVWGQGTTVTVSS
chain 2: QSALTQPASVSGSPGQSITFSCTGTSSDVGSYNLVSWYQQHPGKAPKLMIFEVTKRPSGISNRFSGSKSGNTASLTISGLQAEDEADYYCCSYTNNSTFEGVVFGGGTKLTVL
B12: COV2-2098 (protein)
chain 1: EVQLLESGGGLIQPGGSLRLSCAASGFTFSNYAMSWVRQAPGKGLEWVSGIISTSGGATYNADSVRGRFTTSRDNSKNILYLQMNSLRGEDTAVYYCVKGLFDWFPLWGQGTMVTVSS
chain 2: B5 chain 2 with E1D, T20I, S30R, Y49S, G57A, S76T, F83C, Q89H, R96Q, E103K

What follows are binders tested against SARS-CoV-2 Omicron BA.1 spike pseudovirus (assay: pseudovirus neutralization IC50; higher = weaker neutralization).
Protocol: (§1)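 Single-round VSV luciferase pseudovirus mixed with antibody dilutions for 1 h and put on Huh-7 cells for about a day; IC50 from the dose curve.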
With B1 the “pseudovirus neutralization IC50” value was 0.0116 µg/mL.
In the case of B2, the “pseudovirus neutralization IC50” value is reported as 1.96 µg/mL.
With B3 the “pseudovirus neutralization IC50” value was greater than 10 µg/mL.
For B4, the “pseudovirus neutralization IC50” value was greater than 10 µg/mL.
In the case of B5, the “pseudovirus neutralization IC50” value is reported as 0.0174 µg/mL.
B6 was tested, and the “pseudovirus neutralization IC50” value was 0.00485 µg/mL.
In the case of B7, the “pseudovirus neutralization IC50” value is reported as 0.00576 µg/mL.
In the case of B8, the “pseudovirus neutralization IC50” value is reported as 1.48 µg/mL.
With B9 the “pseudovirus neutralization IC50” value was 0.111 µg/mL.
B10 was tested, and the “pseudovirus neutralization IC50” value was 0.0606 µg/mL.
B11 was tested, and the “pseudovirus neutralization IC50” value was 0.186 µg/mL.
In the case of B12, the “pseudovirus neutralization IC50” value is reported as greater than 10 µg/mL.

The binders below were run against SARS-CoV-2 Omicron BA.2 spike pseudovirus in the same assay as above.
Protocol: as §1
With B1 the “pseudovirus neutralization IC50” value was 0.00442 µg/mL.
With B2 the “pseudovirus neutralization IC50” value was 2.58 µg/mL.
For B3, the “pseudovirus neutralization IC50” value was greater than 10 µg/mL.
With B4 the “pseudovirus neutralization IC50” value was greater than 10 µg/mL.
In the case of B5, the “pseudovirus neutralization IC50” value is reported as 0.0145 µg/mL.
For B6, the “pseudovirus neutralization IC50” value was 0.0045 µg/mL.
For B7, the “pseudovirus neutralization IC50” value was 0.00337 µg/mL.
For B8, the “pseudovirus neutralization IC50” value was 0.516 µg/mL.
In the case of B9, the “pseudovirus neutralization IC50” value is reported as 0.069 µg/mL.
For B10, the “pseudovirus neutralization IC50” value was 0.0221 µg/mL.
In the case of B11, the “pseudovirus neutralization IC50” value is reported as 0.217 µg/mL.
In the case of B12, the “pseudovirus neutralization IC50” value is reported as greater than 10 µg/mL.

The binders below were run against SARS-CoV-2 Omicron BA.2.75 spike pseudovirus in the same assay as above.
Protocol: as §1
B1 was tested, and the “pseudovirus neutralization IC50” value was 0.00609 µg/mL.
B2 was tested, and the “pseudovirus neutralization IC50” value was 2.64 µg/mL.
For B3, the “pseudovirus neutralization IC50” value was greater than 10 µg/mL.
With B4 the “pseudovirus neutralization IC50” value was greater than 10 µg/mL.
For B5, the “pseudovirus neutralization IC50” value was 0.0138 µg/mL.
For B6, the “pseudovirus neutralization IC50” value was 0.003 µg/mL.
B7 was tested, and the “pseudovirus neutralization IC50” value was 0.00335 µg/mL.
B8 was tested, and the “pseudovirus neutralization IC50” value was 1.88 µg/mL.
With B9 the “pseudovirus neutralization IC50” value was 0.0576 µg/mL.
B10 was tested, and the “pseudovirus neutralization IC50” value was 0.0568 µg/mL.
B11 was tested, and the “pseudovirus neutralization IC50” value was 0.219 µg/mL.
With B12 the “pseudovirus neutralization IC50” value was greater than 10 µg/mL.

Each binder was assayed against SARS-CoV-2 Omicron BA.5 spike pseudovirus in the same assay as above.
Protocol: as §1
In the case of B1, the “pseudovirus neutralization IC50” value is reported as 0.00359 µg/mL.
In the case of B2, the “pseudovirus neutralization IC50” value is reported as 3.86 µg/mL.
In the case of B3, the “pseudovirus neutralization IC50” value is reported as greater than 10 µg/mL.
With B4 the “pseudovirus neutralization IC50” value was greater than 10 µg/mL.
With B5 the “pseudovirus neutralization IC50” value was 0.784 µg/mL.
In the case of B6, the “pseudovirus neutralization IC50” value is reported as 0.18 µg/mL.
For B7, the “pseudovirus neutralization IC50” value was 0.00226 µg/mL.
B8 was tested, and the “pseudovirus neutralization IC50” value was greater than 10 µg/mL.
For B9, the “pseudovirus neutralization IC50” value was 0.0321 µg/mL.
For B10, the “pseudovirus neutralization IC50” value was 0.0271 µg/mL.
B11 was tested, and the “pseudovirus neutralization IC50” value was greater than 10 µg/mL.
B12 was tested, and the “pseudovirus neutralization IC50” value was greater than 10 µg/mL.

Each binder was assayed against SARS-CoV-2 Omicron BQ.1.1 spike pseudovirus in the same assay as above.
Protocol: as §1
With B1 the “pseudovirus neutralization IC50” value was 0.0197 µg/mL.
For B2, the “pseudovirus neutralization IC50” value was 3.46 µg/mL.
For B3, the “pseudovirus neutralization IC50” value was greater than 10 µg/mL.
For B4, the “pseudovirus neutralization IC50” value was greater than 10 µg/mL.
With B5 the “pseudovirus neutralization IC50” value was greater than 10 µg/mL.
B6 was tested, and the “pseudovirus neutralization IC50” value was 0.581 µg/mL.
For B7, the “pseudovirus neutralization IC50” value was 0.00543 µg/mL.
B8 was tested, and the “pseudovirus neutralization IC50” value was greater than 10 µg/mL.
In the case of B9, the “pseudovirus neutralization IC50” value is reported as 1.09 µg/mL.
For B10, the “pseudovirus neutralization IC50” value was greater than 10 µg/mL.
B11 was tested, and the “pseudovirus neutralization IC50” value was greater than 10 µg/mL.
B12 was tested, and the “pseudovirus neutralization IC50” value was greater than 10 µg/mL.

These binders were tested against SARS-CoV-2 Omicron XBB spike pseudovirus in the same assay as above.
Protocol: as §1
With B1 the “pseudovirus neutralization IC50” value was 0.0827 µg/mL.
B2 was tested, and the “pseudovirus neutralization IC50” value was 2.55 µg/mL.
With B3 the “pseudovirus neutralization IC50” value was greater than 10 µg/mL.
B4 was tested, and the “pseudovirus neutralization IC50” value was greater than 10 µg/mL.
B5 was tested, and the “pseudovirus neutralization IC50” value was 0.397 µg/mL.
B6 was tested, and the “pseudovirus neutralization IC50” value was greater than 10 µg/mL.
With B7 the “pseudovirus neutralization IC50” value was 0.00715 µg/mL.
With B8 the “pseudovirus neutralization IC50” value was greater than 10 µg/mL.
B9 was tested, and the “pseudovirus neutralization IC50” value was greater than 10 µg/mL.
For B10, the “pseudovirus neutralization IC50” value was greater than 10 µg/mL.
For B11, the “pseudovirus neutralization IC50” value was 1.53 µg/mL.
B12 was tested, and the “pseudovirus neutralization IC50” value was greater than 10 µg/mL.

Each binder was assayed against SARS-CoV-2 early D614G spike pseudovirus in the same assay as above.
Protocol: as §1
With B1 the “pseudovirus neutralization IC50” value was greater than 10 µg/mL.
In the case of B2, the “pseudovirus neutralization IC50” value is reported as greater than 10 µg/mL.
With B3 the “pseudovirus neutralization IC50” value was greater than 10 µg/mL.
For B4, the “pseudovirus neutralization IC50” value was greater than 10 µg/mL.
In the case of B5, the “pseudovirus neutralization IC50” value is reported as 0.0184 µg/mL.
For B6, the “pseudovirus neutralization IC50” value was 0.00237 µg/mL.
In the case of B7, the “pseudovirus neutralization IC50” value is reported as 0.0279 µg/mL.
With B8 the “pseudovirus neutralization IC50” value was 1.25 µg/mL.
With B9 the “pseudovirus neutralization IC50” value was 0.107 µg/mL.
In the case of B10, the “pseudovirus neutralization IC50” value is reported as 0.0331 µg/mL.
B11 was tested, and the “pseudovirus neutralization IC50” value was 0.0205 µg/mL.
In the case of B12, the “pseudovirus neutralization IC50” value is reported as 0.0067 µg/mL.
